System: CD4+Vβ8+ T cells
Settings: ligation of CEACAM1 with fusion protein, in vivo

B1: CEACAM1-Fc fusion protein: mouse CEACAM1 N-domain as an Fc fusion protein; Fc for fusion protein is human (protein)
chain: EVTIEAVPPQVAEDNNVLLLVHNLPLALGAFAWYKGNTTAIDKEIARFVPNSNMNFTGQAYSGREIIYSNGSLLFQMITMKDMGVYTLDMTDENYRRTQATVRFHVHP
modifications: left off: a dimerising Fc or GST
notes: mouse CEACAM1 N-domain as an Fc fusion protein; Fc for fusion protein is human
  TIM3 expression on SEB-responsive CD4+Vβ8+ T cells: induces increased TIM3 expression

Reference: patent US10513540B2, “Modulation of the immune response” (THE BRIGHAM AND WOMEN'S HOSPITAL, INC., priority 2012, dated 2019)
